A mixed list of measured activities; the numbers were collected in NIAID ChemDB.

Common to all: tests on isolated targets; agent: HIV-1; target: Reverse transcriptase

ICn is the concentration giving n% inhibition. Rows are shuffled and stem from different studies. Blank or dashed fields: not listed here. a–b is a range or a potency band.

structure	changes	strain	method	endpoint	value
Cc1occc1C(=S)Nc1ccc(Cl)c(/C=N/OC(C)(C)C)c1	RT-K103N	-	nucleotide incorporation / radiometric	IC50	>50 µM
Cc1cc(C2CC2)cc(Cl)c1-n1c(Br)nnc1SCC(=O)Nc1ccc(C(=O)O)cc1Cl	RT-Y181C	-	nucleotide incorporation / radiometric	IC50	<0.05 µM
N#Cc1cccc2c(-n3c(SCC(=O)Nc4ccc(S(N)(=O)=O)cc4Cl)nnc3C(F)F)cccc12	RT-Y188L	-	nucleotide incorporation / radiometric	IC50	>0.1 µM
Cc1c(Cc2ccccc2)nc(SCCCCO)[nH]c1=O	RT-Y181I	-	-	Ki	578 µM
Cc1cc(S(N)(=O)=O)ccc1NC(=O)CSc1nnc(C(F)F)n1-c1cccc2c(C#N)cccc12	-	-	nucleotide incorporation / radiometric	IC50	>0.1 µM
O=C(CSc1nnc(Br)n1-c1ccc(C2CC2)c2ccccc12)Nc1ccc(C(=O)O)cc1Cl	RT-Y188L	-	nucleotide incorporation / radiometric	IC50	>0.1 µM
CCN1c2ncc(CCOc3ccc(NS(=O)(=O)C(F)(F)F)c4ccccc34)cc2C(=O)N(C)c2ccc(F)nc21	RT-K103N Y181C	-	nucleotide incorporation / radiometric	IC50	0.1–1 µM
CCc1ccc(-n2c(Br)nnc2SCC(=O)Nc2ccc(C(=O)NCC3CCCCC3)cc2Cl)c2ccccc12	RT-Y181C	-	nucleotide incorporation / radiometric	IC50	<0.05 µM
CCN1c2ncc(CCOc3ccc(S(=O)(=O)NCC(=O)O)c4ccccc34)cc2C(=O)N(C)c2cccnc21	RT-Y188L	-	nucleotide incorporation / radiometric	IC50	0.1–1 µM
CCCc1ccc(-n2c(Br)nnc2SCC(=O)Nc2ccc(S(N)(=O)=O)cc2C)c2ccccc12	RT-Y181C	-	nucleotide incorporation / radiometric	IC50	<0.05 µM
CCN1c2ncc(CCOc3ccc(C(=O)O)c4c3CCCC4)cc2C(=O)N(C)c2ccc(Cl)nc21	-	WT	nucleotide incorporation / radiometric	IC50	<0.1 µM
O=C(CSc1nnc(Br)n1-c1ccc(C2CC2)c2ccccc12)Nc1ccc(C(=O)O)cc1Cl	RT-Y181C	-	nucleotide incorporation / radiometric	IC50	<0.05 µM
COC(=O)NCCCCNc1nc(Cc2ccccc2)c(C)c(=O)[nH]1	RT-K103N	-	-	Ki	>1000 µM
CCCCN1C(=O)c2ccnnc2N(C2CC2)c2ccccc21	-	-	-	IC50	>330 µM
CCc1ccc(-n2c(SCC(=O)Nc3ccc(C(=O)O)cc3Cl)nnc2C(F)(F)F)c2ccccc12	-	-	nucleotide incorporation / radiometric	IC50	<0.05 µM
Cc1nnc2c3ccccc3c(N3CCC4CCCCC4C3)nn12	-	98US_MSC5016	RT activity / fluorescence	IC90	31.1 µM
Cc1ccc2c(C)cc(C)c(-n3c(SCC(=O)Nc4ccc(S(N)(=O)=O)cc4C)nnc3C(F)F)c2n1	RT-Y181C	-	nucleotide incorporation / radiometric	IC50	>0.1 µM
C=C1c2cc(CCOc3ccc(NS(C)(=O)=O)c4ccccc34)cnc2N(CC)c2ncccc2N1C	RT-V106A	-	nucleotide incorporation / radiometric	IC50	>1 µM
Cc1cc(C)cc(S(=O)(=O)c2c(C(N)=O)[nH]c3ccc(Cl)cc23)c1	-	WT	nucleotide incorporation / radiometric	IC50	0.003 µM
CCc1cc(C2CC2)ccc1-n1c(Br)nnc1SCC(=O)Nc1ccc(C(=O)O)cc1Cl	RT-Y181C	-	nucleotide incorporation / radiometric	IC50	0.05–0.1 µM
Nc1ccc2c(c1)CN(c1nn3c(-c4cccs4)nnc3c3ccccc13)CC2	-	IIIB	RT activity / fluorescence	IC50	5.18 µM
CCc1ccc(-n2c(Br)nnc2SCC(=O)Nc2ccc(C(=O)O)cc2Br)c2ccccc12	RT-Y188L	-	nucleotide incorporation / radiometric	IC50	0.05–0.1 µM
CN1C(=O)c2cc(-n3ccnc3)nnc2N(C2CC2)c2ccccc21	-	-	-	IC50	>330 µM
Cc1cc(C)c2ccccc2c1-n1c(CF)nnc1SCC(=O)Nc1ccc(S(N)(=O)=O)cc1Cl	-	-	nucleotide incorporation / radiometric	IC50	<0.05 µM
CCN1C(=O)c2cc(Cl)nnc2N(CC)c2ccccc21	-	-	-	IC50	>330 µM
CC(C)C[C@H](NC(=O)c1ccc(NC(=O)CSc2nnc(Br)n2-c2ccc(C3CC3)c3ccccc23)c(Cl)c1)C(=O)O	RT-Y188L	-	nucleotide incorporation / radiometric	IC50	0.05–0.1 µM
O=c1cc(Cc2ccccc2)nc(NCCCCO)[nH]1	RT-L100I	-	-	Ki	525 µM
CCN1c2ncc(CCOc3ccc(CCC(=O)O)c4ccccc34)cc2C(=O)N(C)c2ccc(Cl)nc21	RT-K103N Y181C	-	nucleotide incorporation / radiometric	IC50	0.1–1 µM
CCCN1c2ccc(C)cc2N(CC)C(=O)c2ccnnc21	-	-	-	IC50	<330 µM
COC(=O)[C@H](CC(C)C)NC(=O)c1ccc(NC(=O)CSc2nnc(Br)n2-c2ccc(C3CC3)c3ccccc23)c(Cl)c1	-	-	nucleotide incorporation / radiometric	IC50	<0.05 µM
COc1cccc(-c2nnc3c4ccccc4c(N4CCc5ccccc5C4)nn23)c1	-	98US_MSC5016	RT activity / fluorescence	IC90	>100 µM
CCOC(=O)CN(C)C(=O)c1ccc(NC(=O)CSc2nnc(Br)n2-c2ccc(C3CC3)c3ccccc23)c(Cl)c1	-	-	nucleotide incorporation / radiometric	IC50	0.05–0.1 µM
CCN1c2ncc(CCOc3ccc(CCC(=O)O)c4ccccc34)cc2C(=O)N(C)c2ccc(F)nc21	RT-K103N Y181C	-	nucleotide incorporation / radiometric	IC50	0.1–1 µM
Cc1cc(S(N)(=O)=O)ccc1NC(=O)CSc1nnc(Br)n1-c1ccc(C2CCC2)c2ccccc12	-	-	nucleotide incorporation / radiometric	IC50	<0.05 µM
Cc1occc1C(=S)Nc1ccc(Cl)c(C(=O)OCC2CC2)c1	RT-Y181C	-	nucleotide incorporation / radiometric	IC50	>50 µM
CN(CC(=O)O)C(=O)c1ccc(NC(=O)CSc2nnc(Br)n2-c2ccc(C3CC3)c3ccccc23)c(Cl)c1	-	-	nucleotide incorporation / radiometric	IC50	<0.05 µM
Cc1nnc2c3ccccc3c(N3CCc4cc(O)c(O)cc4C3)nn12	-	IIIB	RT activity / fluorescence	IC50	1.71 µM
Cc1cc(C2CC2)c2ccccc2c1-n1c(Br)nnc1SCC(=O)Nc1ccc(S(N)(=O)=O)cc1Cl	RT-Y188L	-	nucleotide incorporation / radiometric	IC50	0.05–0.1 µM
C=CCO/N=C/c1cc(NC(=S)c2ccoc2C)ccc1Cl	RT-V106A	-	nucleotide incorporation / radiometric	IC50	20 µM
COc1cccc2c(-n3c(Br)nnc3SCC(=O)Nc3ccc(C(=O)O)cc3Cl)cccc12	RT-Y181C	-	nucleotide incorporation / radiometric	IC50	0.05–0.1 µM
Cc1cc(C(=O)O)ccc1NC(=O)CSc1nnc(C(F)F)n1-c1ccc(C)c2c1CCCC2	-	-	nucleotide incorporation / radiometric	IC50	<0.05 µM
Cc1cc(S(N)(=O)=O)ccc1NC(=O)CSc1nnc(Br)n1-c1ccc2c3c(cccc13)CC2	-	-	nucleotide incorporation / radiometric	IC50	<0.05 µM
Cc1cc(C)cc(S(=O)(=O)c2c(C(=O)NC(C)C(N)=O)[nH]c3ccc(Cl)cc23)c1	-	WT	nucleotide incorporation / radiometric	Ki	0.0003 µM

A second listing of 4 rows from above:

structure | changes | strain | method | endpoint | value
N#Cc1cccc2c(-n3c(SCC(=O)Nc4ccc(S(N)(=O)=O)cc4Cl)nnc3C(F)F)cccc12 | RT-Y188L | - | nucleotide incorporation / radiometric | IC50 | >0.1 µM
O=C(CSc1nnc(Br)n1-c1ccc(C2CC2)c2ccccc12)Nc1ccc(C(=O)O)cc1Cl | RT-Y188L | - | nucleotide incorporation / radiometric | IC50 | >0.1 µM
COC(=O)[C@H](CC(C)C)NC(=O)c1ccc(NC(=O)CSc2nnc(Br)n2-c2ccc(C3CC3)c3ccccc23)c(Cl)c1 | - | - | nucleotide incorporation / radiometric | IC50 | <0.05 µM
CCc1ccc(-n2c(Br)nnc2SCC(=O)Nc2ccc(C(=O)NCC3CCCCC3)cc2Cl)c2ccccc12 | RT-Y181C | - | nucleotide incorporation / radiometric | IC50 | <0.05 µM